Chains of the proteins cited; added tags and fusions are not shown.
UniProt P04757, whole entry, looked up: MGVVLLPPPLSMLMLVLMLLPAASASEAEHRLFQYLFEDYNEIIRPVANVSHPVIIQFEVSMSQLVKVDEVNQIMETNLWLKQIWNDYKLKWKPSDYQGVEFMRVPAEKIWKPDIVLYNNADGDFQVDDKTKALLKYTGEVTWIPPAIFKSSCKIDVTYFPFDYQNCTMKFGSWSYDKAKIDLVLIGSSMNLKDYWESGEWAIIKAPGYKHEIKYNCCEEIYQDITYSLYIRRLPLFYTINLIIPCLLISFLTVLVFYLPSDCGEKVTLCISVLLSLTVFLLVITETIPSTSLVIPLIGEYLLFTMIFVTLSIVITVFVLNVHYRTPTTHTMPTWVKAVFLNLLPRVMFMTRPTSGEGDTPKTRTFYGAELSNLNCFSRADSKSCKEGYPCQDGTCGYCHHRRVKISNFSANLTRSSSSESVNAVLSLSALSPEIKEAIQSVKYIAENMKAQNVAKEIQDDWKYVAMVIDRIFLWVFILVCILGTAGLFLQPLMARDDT
UniProt P12390, whole entry, looked up: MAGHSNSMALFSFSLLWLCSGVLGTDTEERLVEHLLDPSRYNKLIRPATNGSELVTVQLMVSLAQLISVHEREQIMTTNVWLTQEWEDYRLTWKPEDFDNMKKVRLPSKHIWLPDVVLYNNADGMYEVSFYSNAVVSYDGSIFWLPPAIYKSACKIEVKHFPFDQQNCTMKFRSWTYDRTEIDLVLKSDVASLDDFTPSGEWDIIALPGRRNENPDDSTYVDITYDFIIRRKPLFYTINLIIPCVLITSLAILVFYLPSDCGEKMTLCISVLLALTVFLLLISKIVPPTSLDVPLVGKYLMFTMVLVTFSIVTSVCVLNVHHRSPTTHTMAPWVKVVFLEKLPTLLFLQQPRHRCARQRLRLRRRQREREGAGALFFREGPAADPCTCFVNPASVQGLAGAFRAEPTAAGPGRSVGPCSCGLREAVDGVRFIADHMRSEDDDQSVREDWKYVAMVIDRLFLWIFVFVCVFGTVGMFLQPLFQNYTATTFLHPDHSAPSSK

In ChEMBL document CHEMBL4364262 (J Med Chem, 2019):

What was measured:
Rattus norvegicus [1] = species on record: Rattus norvegicus; assay: Selectivity ratio of IC50 for rat alpha6beta4 nAChR expressed in Xenopus laevis oocytes to IC50 for rat alpha3beta2 nACHR expressed in Xenopus laevis oocytes
Rattus norvegicus [2] = species on record: Rattus norvegicus; assay: Selectivity ratio of IC50 for rat alpha6beta2 nAChR expressed in Xenopus laevis oocytes to IC50 for rat alpha3beta2 nACHR expressed in Xenopus laevis oocytes
Rattus norvegicus [3] = species on record: Rattus norvegicus; assay: Selectivity ratio, ratio of IC50 for rat alpha3beta4 nACHR expressed in Xenopus laevis oocytes to IC50 for rat alpha3beta2 nACHR expressed in Xenopus laevis oocytes
Rattus norvegicus [4] = species on record: Rattus norvegicus; assay: Selectivity ratio of IC50 for rat alpha6/alpha3beta2beta3 nAChR expressed in Xenopus laevis oocytes to IC50 for rat alpha3beta2 nACHR expressed in Xenopus laevis oocytes
Rattus norvegicus [5] = species on record: Rattus norvegicus; assay: Selectivity ratio, ratio of IC50 for rat alpha7 nAChR expressed in Xenopus laevis oocytes to IC50 for rat alpha3beta2 nACHR expressed in Xenopus laevis oocytes
Rattus norvegicus [6] = species on record: Rattus norvegicus; assay: Selectivity ratio, ratio of IC50 for rat alpha4beta2 nACHR expressed in Xenopus laevis oocytes to IC50 for rat alpha3beta2 nACHR expressed in Xenopus laevis oocytes
Rattus norvegicus [7] = species on record: Rattus norvegicus; assay: Selectivity ratio, ratio of IC50 for rat alpha6alpha3beta4 nAChR expressed in Xenopus laevis oocytes to IC50 for rat alpha3beta2 nACHR expressed in Xenopus laevis oocytes
[8] = biological target: T1, Neuronal acetylcholine receptor; alpha3/beta2 (Rattus norvegicus) (UniProt P04757+P12390); assay: Reversible inhibition of rat alpha3beta2 nACHR expressed in Xenopus laevis oocytes assessed as off-rate constant at 100 nM at -70 mV holding potential by two electrode voltage-clamp assay
[9] = biological target: T1, Neuronal acetylcholine receptor; alpha3/beta2 (Rattus norvegicus); assay: Reversible inhibition of rat alpha3beta2 nACHR expressed in Xenopus laevis oocytes assessed as half-life for enzyme recovery at 100 nM at -70 mV holding potential by two electrode voltage-clamp assay
[10] = biological target: T1, Neuronal acetylcholine receptor; alpha3/beta2 (Rattus norvegicus); assay: Antagonist activity at rat alpha3beta2 nACHR expressed in Xenopus laevis oocytes assessed as dissociation half-life at 10 nM at -70 mV holding potential by two electrode voltage-clamp assay relative to control
[11] = biological target: T1, Neuronal acetylcholine receptor; alpha3/beta2 (Rattus norvegicus); assay: Antagonist activity at rat alpha3beta2 nACHR expressed in Xenopus laevis oocytes assessed as inhibition of Ach-induced responses by measuring observed inhibitory rate constant at 10 nM at -70 mV holding potential by two electrode voltage-clamp assay

Structure (SMILES)	Ratio IC50 (Rattus norvegicus [1])	Ratio IC50 (Rattus norvegicus [2])	Ratio IC50 (Rattus norvegicus [3])	Ratio IC50 (Rattus norvegicus [4])	Ratio IC50 (Rattus norvegicus [5])	Ratio IC50 (Rattus norvegicus [6])	Ratio IC50 (Rattus norvegicus [7])	K [8] [min⁻¹]	T1/2 [9] [min]	T1/2 [10] [min]	K [11] [min⁻¹]
CC[C@H](C)[C@@H]1NC(=O)[C@H](CCC(=O)O)NC(=O)[C@@H]2CCCN2C(=O)[C@H](Cc2cnc[nH]2)NC(=O)[C@H](CC(=O)O)NC(=O)[C@H](C(C)C)NC(=O)[C@H](CC(N)=O)NC(=O)[C@@H]2CSSC[C@H](NC(=O)CN)C(=O)N[C@@H](CSSC[C@@H](C(N)=O)NC1=O)C(=O)N[C@@H](CO)C(=O)N[C@@H](Cc1cnc[nH]1)C(=O)N1CCC[C@H]1C(=O)N[C@@H](C)C(=O)N2	< 20	< 20	< 20	12	–	–	–	–	–	–	–
CCCC[C@@H]1NC(=O)[C@H](Cc2cnc[nH]2)NC(=O)[C@@H]2CSSC[C@H](NC(=O)CN)C(=O)N[C@@H](CSSC[C@@H](C(N)=O)NC(=O)[C@H](CC(C)C)NC(=O)[C@H](CCC(=O)O)NC(=O)[C@@H]3CCCN3C(=O)[C@H](Cc3cnc[nH]3)NC(=O)[C@H](CCCCC(=O)O)NC1=O)C(=O)N[C@@H](CO)C(=O)N[C@@H](Cc1cnc[nH]1)C(=O)N1CCC[C@H]1C(=O)N[C@@H](C)C(=O)N2	–	–	129	220	14	1460	92	–	–	–	–
CC[C@H](C)[C@@H]1NC(=O)[C@H](CCC(=O)O)NC(=O)[C@@H]2CCCN2C(=O)[C@H](Cc2cnc[nH]2)NC(=O)[C@H](CCCCC(=O)O)NC(=O)[C@H]([C@@H](C)CC)NC(=O)[C@H](Cc2cnc[nH]2)NC(=O)[C@@H]2CSSC[C@H](NC(=O)CN)C(=O)N[C@@H](CSSC[C@@H](C(N)=O)NC1=O)C(=O)N[C@@H](CO)C(=O)N[C@@H](Cc1cnc[nH]1)C(=O)N1CCC[C@H]1C(=O)N[C@@H](C)C(=O)N2	–	–	595	102	60	998	134	–	–	–	–
CC[C@H](C)[C@@H]1NC(=O)[C@H](Cc2cnc[nH]2)NC(=O)[C@@H]2CSSC[C@H](NC(=O)CN)C(=O)N[C@@H](CSSC[C@@H](C(N)=O)NC(=O)[C@H](CC(C)C)NC(=O)[C@H](CCC(=O)O)NC(=O)[C@@H]3CCCN3C(=O)[C@H](Cc3cnc[nH]3)NC(=O)[C@H](CCCCC(=O)O)NC1=O)C(=O)N[C@@H](CO)C(=O)N[C@@H](Cc1cnc[nH]1)C(=O)N1CCC[C@H]1C(=O)N[C@@H](C)C(=O)N2	–	–	1330	59	84	742	114	–	–	–	–
CCCC[C@@H]1NC(=O)[C@H](Cc2cnc[nH]2)NC(=O)[C@@H]2CSSC[C@H](NC(=O)CN)C(=O)N[C@@H](CSSC[C@@H](C(N)=O)NC(=O)[C@H]([C@@H](C)CC)NC(=O)[C@H](CCC(=O)O)NC(=O)[C@@H]3CCCN3C(=O)[C@H](Cc3cnc[nH]3)NC(=O)[C@H](CCCCC(=O)O)NC1=O)C(=O)N[C@@H](CO)C(=O)N[C@@H](Cc1cnc[nH]1)C(=O)N1CCC[C@H]1C(=O)N[C@@H](C)C(=O)N2	–	–	292	290	12	1620	158	0.065	10.6	1.1	0.617
